These results are taken from article PMC4012986, “The Dimerization Domain in DapE Enzymes Is required for Catalysis” (PLoS ONE, 2014).

Broadly, the Km is the substrate concentration at which the rate is half of its maximum. A word on the kcat: it is the number of substrate molecules converted per active site and unit of time at saturation.

This data set relates to N[C@@H](CCC[C@H](NC(=O)CCC(=O)O)C(=O)O)C(=O)O. As to the kind of experiment: purified protein. The following applies: 50 mM phosphate pH 7.5, 25 °C, two equivalents Zn(II).

As to “WT-HiDapE (Haemophilus influenzae Rd KW20; T325A)”, the Michaelis constant (Km) is 2100 ± 200 µM and the kcat was 4 ± 0.5 s⁻¹.
